In US11364264B2, “Ex vivo antigen-presenting cells or activated CD-positive T cells for treatment of cancer” (priority 2016, dated 2022):
Like-named read-outs stand apart in the source and are kept apart here.

How the values were obtained:
[1] = tested on: Luc-ID8 ovarian cancer cells; test: Syngeneic Luc-ID8 ovarian cancer model: tumor growth by bioluminescence imaging and survival; type: in vivo; conditions: 4 μg per mouse i.p.; for Median survival: saline 55 days; for Survival of tumor-bearing mice compared to saline: Log-rank, p=0.0253 (VIC-007), p=0.0002 (VIC-008)
[2] = tested on: Luc-40L mesothelioma cancer cells; test: Luc-40L mesothelioma model, survival (Example 4); type: in vivo, mouse; conditions: VIC-008 20 μg and/or AMD3100 1 μg/g body weight once a week for four weeks
[3] = tested on: 40L mouse mesothelioma cell line; test: 40L intraperitoneal malignant mesothelioma model: tumor weight and survival (Example 5); conditions: in vivo
[4] = tested on: AE17 mouse mesothelioma cell line; test: AE17 intraperitoneal malignant mesothelioma model: tumor weight and survival (Example 5); conditions: in vivo
[5] = tested on: 40L mouse mesothelioma cell line; test: Immune profiling by flow cytometry of tissues from 40L tumor-bearing mice; type: in vivo
[6] = tested on: AE17 mouse mesothelioma cell line; type: in vivo; conditions: for Proportion of PD-1-expressing CD8+ T cells compared to saline / Proportion of CD8+ T cells in total live cells compared to saline: AE17; for Proportion of CD8+ T cells in total live cells compared to saline: one week after last treatment
[7] = tested on: 40L mouse mesothelioma cell line; test: Ex vivo restimulation with recombinant mesothelin, intracellular IFN-γ in CD8+ T cells, 40L mice
[8] = tested on: AE17 mouse mesothelioma cell line; test: Ex vivo restimulation with recombinant mesothelin, intracellular IFN-γ in CD8+ T cells, AE17 mice
[9] = tested on: ovarian cancer and mesothelioma; conditions: previous study (Yuan J, et al. 2014); cited from earlier work
[10] = 4 treatments at 7-day intervals, p<0.0001
[11] = 4 treatments at 7-day intervals

B1: VIC-008: New version of scFv-MtbHsp70 fusion protein (anti-MSLN scFv fused to MtbHsp70), redundant amino acids eliminated, F in place of V at position 381 (protein)
chain: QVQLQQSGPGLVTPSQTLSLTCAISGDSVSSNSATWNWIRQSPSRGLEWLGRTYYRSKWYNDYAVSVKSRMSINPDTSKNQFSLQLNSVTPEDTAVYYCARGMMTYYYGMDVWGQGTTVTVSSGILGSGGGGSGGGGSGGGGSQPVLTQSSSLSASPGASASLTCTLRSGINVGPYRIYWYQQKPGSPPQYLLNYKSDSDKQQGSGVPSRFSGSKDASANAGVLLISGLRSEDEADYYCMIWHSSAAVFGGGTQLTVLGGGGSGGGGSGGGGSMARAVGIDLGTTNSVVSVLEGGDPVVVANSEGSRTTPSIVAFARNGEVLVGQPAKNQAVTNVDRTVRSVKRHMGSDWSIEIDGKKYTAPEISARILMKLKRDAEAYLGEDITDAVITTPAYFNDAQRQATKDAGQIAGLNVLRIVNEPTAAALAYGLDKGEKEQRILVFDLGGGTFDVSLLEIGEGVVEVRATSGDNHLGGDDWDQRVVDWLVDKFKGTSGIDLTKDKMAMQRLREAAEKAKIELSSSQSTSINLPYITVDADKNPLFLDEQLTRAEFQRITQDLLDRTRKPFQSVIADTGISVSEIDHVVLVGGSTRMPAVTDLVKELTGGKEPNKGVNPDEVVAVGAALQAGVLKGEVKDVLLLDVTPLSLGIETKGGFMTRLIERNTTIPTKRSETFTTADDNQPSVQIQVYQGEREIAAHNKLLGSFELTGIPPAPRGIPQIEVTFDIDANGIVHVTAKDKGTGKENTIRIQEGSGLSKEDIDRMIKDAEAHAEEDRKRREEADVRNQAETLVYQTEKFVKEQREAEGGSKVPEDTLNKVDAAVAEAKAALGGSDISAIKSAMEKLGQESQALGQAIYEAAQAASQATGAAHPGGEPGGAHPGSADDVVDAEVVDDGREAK
modifications: fusion protein
With B1 the “Intraperitoneal tumor growth (bioluminescence signals) compared to VIC-007” value [1, 10] was “further significantly delayed tumor growth”, the “Intraperitoneal tumor growth (bioluminescence signals) compared to saline” value [1, 10] was “significantly slowed tumor growth” and the Median survival [1, 11] was 65 days. The “Survival of tumor-bearing mice compared to VIC-007” value ([1]; Log-rank p=0.0301) was “further significantly prolonged the survival”, the “Survival of tumor-bearing mice compared to saline” value [1] was “significantly enhanced the survival” and the “Survival of tumor-bearing mice compared to saline” value [2] was “significantly enhanced the survival”. The “Animal survival compared to saline” value [3] was “significantly prolonged”, the “Total weight of intraperitoneal tumors / tumor control compared to saline” value [3] was “generally reduced” and the “Animal survival compared to saline” value [4] was “significantly prolonged”. For the same molecule, the “Total weight of intraperitoneal tumors / tumor control compared to saline” value [4] was “generally reduced”, the “Proportion of CD8+ T cells in total live cells compared to saline” value ([5]; […], one week after last treatment) was “significantly increased” and the “Percentage of PD-1 expressing CD8+ T cells” value (“Percentage” for short) ([5]; mouse, in vivo) was 43-76%. The “Percentage” value ([6]; AE17 tumors) was 28-47%, the “Proportion of PD-1-expressing CD8+ T cells compared to saline” value ([6]; lymph nodes) was “no significant difference” and the “Proportion of CD8+ T cells in total live cells compared to saline” value ([6]; lymph nodes) was “significantly increased”. The “Percentage” value ([6]; spleen and lymph nodes, model not stated) was 5-10%, the “Proportion of PD-1-expressing CD8+ T cells compared to saline” value ([6]; spleens) was “no significant difference” and the “Proportion of CD8+ T cells in total live cells compared to saline” value ([6]; spleens) was “significantly increased”. The “Proportion of PD-1-expressing CD8+ T cells compared to saline” value ([6]; tumors) was “significantly more”, the “Proportion of CD8+ T cells in total live cells compared to saline” value ([6]; tumors) was “significantly increased” and the “Mesothelin-specific IFN-γ expression in CD8+ T cells compared to saline” value [7] was “significantly greater”. The “Mesothelin-specific IFN-γ expression in CD8+ T cells compared to saline” value ([8]; lymph node CD8+ T cells) was “significantly greater” and the “Mesothelin-specific IFN-γ expression in CD8+ T cells compared to saline” value ([8]; splenic CD8+ T cells) was “significantly greater”.

B2: VIC-007: Original scFv-MtbHsp70 fusion protein: anti-MSLN p4 scFv fused to full length MtbHsp70 with a (G4S)3 linker (protein)
chain: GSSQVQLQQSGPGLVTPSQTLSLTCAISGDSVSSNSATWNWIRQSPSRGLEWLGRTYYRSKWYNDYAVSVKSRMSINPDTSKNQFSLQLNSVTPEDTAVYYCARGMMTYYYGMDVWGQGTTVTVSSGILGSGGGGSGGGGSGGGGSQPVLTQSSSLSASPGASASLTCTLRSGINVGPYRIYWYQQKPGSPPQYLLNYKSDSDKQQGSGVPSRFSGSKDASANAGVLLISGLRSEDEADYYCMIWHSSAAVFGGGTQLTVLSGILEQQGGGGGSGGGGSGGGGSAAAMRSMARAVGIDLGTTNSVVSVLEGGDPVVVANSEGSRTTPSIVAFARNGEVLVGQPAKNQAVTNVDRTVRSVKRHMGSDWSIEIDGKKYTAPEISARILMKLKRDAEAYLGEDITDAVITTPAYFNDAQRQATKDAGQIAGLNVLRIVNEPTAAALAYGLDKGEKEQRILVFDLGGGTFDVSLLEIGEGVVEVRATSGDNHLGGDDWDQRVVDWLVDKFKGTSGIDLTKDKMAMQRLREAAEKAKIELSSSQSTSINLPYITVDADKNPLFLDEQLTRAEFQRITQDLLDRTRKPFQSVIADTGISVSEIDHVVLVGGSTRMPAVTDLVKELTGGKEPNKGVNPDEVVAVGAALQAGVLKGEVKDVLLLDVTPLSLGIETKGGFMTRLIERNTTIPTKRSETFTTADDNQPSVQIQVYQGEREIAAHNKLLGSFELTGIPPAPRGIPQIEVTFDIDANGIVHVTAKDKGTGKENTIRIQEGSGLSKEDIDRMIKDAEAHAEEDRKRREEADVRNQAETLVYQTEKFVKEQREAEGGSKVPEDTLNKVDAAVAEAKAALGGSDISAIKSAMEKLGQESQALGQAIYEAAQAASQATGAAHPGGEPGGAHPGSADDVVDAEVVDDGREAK
modifications: fusion protein
notes: Original scFv-MtbHsp70 fusion protein: anti-MSLN p4 scFv fused to full length MtbHsp70 with a (G4S)3 linker
With B2 the “Intraperitoneal tumor growth (bioluminescence signals) compared to saline” value [1, 10] was “significantly slowed tumor growth”, the Median survival [1, 11] was 60 days and the “Survival of tumor-bearing mice compared to saline” value [1] was “significantly enhanced the survival”. The “Control of tumor growth” value [9] was “significant control of tumor growth” and the “Survival of tumor-bearing mice” value [9] was “prolongation of the survival”.
